Pooled drug test results. Numbers come from NIAID ChemDB, via PubChem.

Common to all: whole-cell or culture tests; organism: Mycobacterium tuberculosis

MIC bound: limit read from a one-dose screen. Two numbers with a dash give a range or band. A number after MIC or MFC names an inhibition level or a share of isolates. Inhibition is in % at the dose shown (toxicity tests: loss of growth or viability). An empty or dashed field is not shown. Conditions beyond the fields shown may differ between rows.

compound,mutations,method,setting,dose,endpoint,strain,value
CC(=O)C(CC(=O)Nc1ccc(Cl)cc1)C(=O)Nc1cccc2ccccc12,,,,30 µg/mL,inhibition,H37Rv,0%
COC(=O)c1ccc(CSc2ccccc2NC(=S)Nc2cccc(SC)c2)o1,,BACTEC,,12.5 µg/mL,inhibition,H37Rv,-58%
CC1CCC2(CC1)Cn1cc([N+](=O)[O-])nc1O2,,,,,MIC,H37Rv,0.12 µg/mL
CCC(C)[C@H](NC(=O)CCC(C)[C@H]1CCC2C3C(C[C@H](O)[C@@]21C)[C@@]1(C)CC[C@@H](O)CC1C[C@H]3O)C(=O)OCc1cn(CC2OC(n3cnc4c(N)ncnc43)[C@@H]3OC(C)(C)O[C@H]23)nn1,,resazurin,,,MIC,H37Rv,7.01 µM
CN1CCCCC1CCN1c2ccccc2Sc2ccc(S(C)=O)cc21,,,,,MIC,,6–32 µg/mL
S=C(S)NN1CCCC1,,,,,MIC,ETA-R,0.8 µg/mL
CCN(CC)c1nc(Cl)nc(Nc2ccc3cc(-c4ccccc4)c(=O)oc3c2)n1,,,,,MIC,H37Rv,125 µg/mL
Cc1c(N2CCN(C(=O)c3ccco3)CC2)c([N+](=O)[O-])cc2c(=O)c(C(=O)O)cn(C3CC3)c12,,,,,MIC,H37Rv,0.84 µM
O=C1O[C@H](CO)[C@@H](O)[C@H](O)[C@H]1O,,BACTEC,,12.5 µg/mL,inhibition,H37Rv,24%
CCN(CC)CCNC(=O)c1cc(Cl)cc([N+](=O)[O-])c1,,,,,MIC,N353,50 µg/mL
Cc1onc(-c2ccccc2)c1C(=O)N[C@@H]1C(=O)N2[C@@H]1SC(C)(C)[C@@H]2C(=O)O,,colony count,21 d,5 µg/mL,inhibition,Gordon,95%
C=CCOCC1Cn2cc([N+](=O)[O-])nc2O1,,,,,MIC,H37Rv,3.9 µg/mL
CN1[C@@H]2CC[C@H]1CC(OC(c1ccccc1)c1ccccc1)C2,,,,,MIC99,H37Rv,250 µg/mL
CC(C)=CCC/C(C)=C/CC/C(C)=C/CC1(C)SC(=O)C(C)=C1O,,,,,MIC90,H37Rv,29 µM
CCC1CN(c2c(F)cc3c(=O)c(C(=O)O)cn(C4CC4)c3c2OC)CCN1,,,,,MIC,Isolate TN1865,0.3 µg/mL
CCOC(=O)c1ccc(NC(=O)C(CC(=O)Nc2cccc(C)c2)C(C)=O)cc1,,,,30 µg/mL,inhibition,H37Rv,0%
COC(=O)c1ccc(/C=C2\N=C(c3ccc(F)cc3)OC2=O)cc1,,MTT,,,MIC,H37Rv,38.5 µM
O=[N+]([O-])c1cn2c(n1)OC1(CCCCC1)C2,,,,,MIC,H37Rv,0.015 µg/mL
CN1CCN(c2ccncc2S(=O)(=O)N2CCN(C)CC2)CC1,,resazurin,,,MIC bound,H37Rv,>6.25 µg/mL
NC1=NC(=O)/C(=C/C=C/c2ccc([N+](=O)[O-])o2)S1,,MTT,,,MIC,mc4914,26.9 µM
C[C@@H]1CN(c2c(F)c(N)c3c(=O)c(C(=O)O)cn(C4CC4)c3c2F)C[C@H](C)N1,,,,,MIC,Isolate TN6515,0.075 µg/mL
FC(F)(F)c1cc(NCc2ccccn2)c2cccc(C(F)(F)F)c2n1,,,,,MIC,,66 µM
CC(C)N=c1cc2n(-c3ccc(Cl)cc3)c3ccccc3nc-2cc1Nc1ccc(Cl)cc1,,,,,MIC,TAC-R,≤0.1 µg/mL
O=C(NCc1cccc(Cl)c1)c1ncccc1O,,,,,MIC,CNCTC MY 331/8,125 µM
CC1CC(O)C2C3(C)C(=O)C34CCCC3(CC23C12CCC1(CCOC1=O)O2)O4,,BACTEC,,12.5 µg/mL,inhibition,H37Rv,2%
CC(CCC(=O)N[C@@H](C)C(=O)OCc1cn(CC2OC(n3ccc(=O)[nH]c3=O)[C@@H]3OC(C)(C)O[C@H]23)nn1)[C@H]1CCC2C3CCC4C[C@H](O)CC[C@]4(C)C3C[C@H](O)[C@@]21C,,resazurin,,,MIC,H37Rv,15.41 µM
CC1SC(=O)C(C)(C)C1=O,,,,,MIC,H37Rv,240 µM
CCOC(=O)c1ccc(NC(=O)CC(C(C)=O)C(=O)Nc2cccc3ccccc23)cc1,,,,5 µg/mL,inhibition,H37Rv,0%
CCCCCC1C(C(=O)O)NC(=O)C1c1ccccc1,,BACTEC,,12.5 µg/mL,inhibition,H37Rv,-2%
COc1ccccc1-c1cc(C(F)(F)F)nc2c(C(F)(F)F)cccc12,,,,,MIC,,>128 µM
CC(C)=CCC/C(C)=C/CC1(C)SC(=O)C(C)=C1O,,,,,MIC90,H37Rv,200 µM
CC(CCC(=O)N[C@@H](Cc1ccccc1)C(=O)OCc1cn(CC2OC(n3cnc4c(N)ncnc43)[C@@H]3OC(C)(C)O[C@H]23)nn1)[C@H]1CCC2C3CCC4C[C@H](O)CC[C@]4(C)C3C[C@H](O)[C@@]21C,,resazurin,,,MIC,H37Rv,6.86 µM
COc1ccc(O[C@@H]2C=CC(=O)[C@@H](CO)O2)cc1,,BACTEC / radiometric,,,MIC,H37Rv,>25 µg/mL
CC(C)OCC1Cn2cc([N+](=O)[O-])nc2O1,,,,,MIC,H37Rv,3.9 µg/mL
COc1ccc(OC)c(/C=C2N=C(/C=C/c3ccccc3OC)OC\2=O)c1,,MTT,,,MIC,H37Rv,17.1 µM
CC1Cn2c([N+](=O)[O-])cnc2O1,,,,,MIC,H37Rv,250 µg/mL
Cn1cnc2c(NC(=O)NCc3ccccc3)nc(Cl)cc21,,visual reading,,,MIC99,H37Rv,25 µM
COc1ccc(NC(=O)C(COCc2ccccc2)C(C)=O)cc1,,BACTEC,,12.5 µg/mL,inhibition,H37Rv,29%
CN(C)CCCN1c2ccccc2Sc2ccc(Cl)cc21,,,,,MIC,5 isolates (polydrug resistance),4 µg/mL
COc1c(N2CCNC(C)C2)c(F)cc2c(=O)c(C(=O)O)cn(C3CC3)c12,,,,,MIC,H37Rv,1.04 µM
NNC(=O)CCC1(c2ccccc2)CCCC/C1=N\O,,BACTEC,,12.5 µg/mL,inhibition,H37Rv,21%
CC(C)OC(=O)c1cc[n+](CC(=O)c2ccc(F)cc2)cc1.[Br-],MDR,resazurin,,,MIC,,1 µg/mL
COc1ccc2c(c1)N(C[C@H](C)CN(C)C)c1ccccc1S2,,,,,MIC,,10 µg/mL
O=C(Nc1cccc([N+](=O)[O-])c1)c1ccccc1O,,,,,MIC,CNCTC MY 331/8,16 µM
O=[N+]([O-])c1cn2c(n1)OC(CBr)C2,,,,,MIC,H37Rv,0.24 µg/mL
COC(=O)C1C2C=CC(C1C(=O)OC)C1C(C(=O)NN)C(C(=O)NN)C21,,BACTEC,,,MIC bound,H37Rv,>12.5 µg/mL
COc1ccc(CC2C3=C(CCCC3)CCN2c2c([N+](=O)[O-])cc3c(=O)c(C(=O)O)cn(C4CC4)c3c2C)cc1,,,,,MIC,H37Rv,2.96 µM
O[C@@H](c1cc(C(F)(F)F)nc2c(C(F)(F)F)cccc12)[C@@H]1CCCCN1Cc1ccccc1,,,,,MIC,,7 µM
O=C(Nc1cccc(Cl)c1)c1ccccc1O,,,,,MIC,CNCTC MY 331/8,16 µM
CCN(CC)C(=O)c1c2nc3c(C(=O)N(CC)CC)ccc(C)c3oc-2c(C)c(=O)c1N,,BACTEC,,,MIC bound,H37Rv,>12.5 µg/mL
CC1=C(O)C(C)(CCC(C)CCCC(C)C)SC1=O,,,,,MIC90,H37Rv,29 µM
Cn1cnc2c(NS(=O)(=O)c3ccc(C#N)cc3)nc(Cl)cc21,,visual reading,,,MIC99,H37Rv,>25 µM
c1ccc(CSc2nnc3c4ccccc4c4ccccc4c3n2)cc1,,,,,MIC99,H37Rv,162.5 µg/mL
Cn1cnc2c(NC(=O)c3cccc(C(F)(F)F)c3)nc(Cl)cc21,,visual reading,,,MIC99,H37Rv,0.25 µM
Cc1c(C(=O)CC(=O)C(=O)Nc2cc(Cl)ccc2Cl)[n+](=O)c2ccccc2n1[O-],,BACTEC,,12.5 µg/mL,inhibition,H37Rv,85%
O=C(Nc1ccc([N+](=O)[O-])cc1)c1ccccc1O,,,,,MIC,CNCTC MY 331/8,8 µM
COc1ccc2c(c1)N(CC(C)C[N+](C)(C)CCCCCCCCCC[N+](C)(C)CC(C)CN1c3ccccc3Sc3ccc(OC)cc31)c1ccccc1S2.[Br-].[Br-],,BACTEC,,12.5 µg/mL,inhibition,H37Rv,82%
COc1cc(/C=C2/C(=O)NN(c3ccc(Cl)cc3)C2=O)cc([N+](=O)[O-])c1O,,MTT,,,MIC,H37Rv,1.5 µM
Cc1c(N2CCCC(C(=O)N(C)C)C2)c([N+](=O)[O-])cc2c(=O)c(C(=O)O)cn(C(C)(C)C)c12,,,,,MIC,H37Rv,25.69 µM
CC(=O)Oc1c2c(c(CC=C(C)C)c3c1C(=O)C1=CC4CC5C(C)(C)OC(C/C=C(\C)C(=O)O)(C4=O)C15O3)OC(C)(CCC=C(C)C)C=C2,,BACTEC,,12.5 µg/mL,inhibition,H37Rv,52%
C=C/C(C)=C/[C@@]1(C)SC(=O)C(C)=C1O,,,,,MIC50,H37Rv,56 µM
O=C(Nc1ccc(F)cc1)c1ncccc1S,,,,,MIC,CNCTC MY 331/8,16 µM
Cc1c(N2CCC(O)(c3ccc(Cl)cc3)CC2)c([N+](=O)[O-])cc2c(=O)c(C(=O)O)cn(C(C)(C)C)c12,,,,,MIC,H37Rv,24.32 µM
CN(C)CCN1C(=O)CC(c2ccccc2)Sc2ccccc21,,BACTEC,,,MIC bound,H37Rv,>12.5 µg/mL
COc1ccc(CC2C3=C(CCCC3)CCN2c2c([N+](=O)[O-])cc3c(=O)c(C(=O)O)cn(-c4ccc(F)cc4F)c3c2C)cc1,,,,,MIC,H37Rv,20.3 µM
CC[N+](C)(CC)CCNC(=O)c1cc([N+](=O)[O-])cc([N+](=O)[O-])c1,,,,,MIC,N73,50 µg/mL
O=[N+]([O-])c1cnc2n1CC(CCl)O2,,,,,MIC,H37Rv,250 µg/mL
CCOC(=O)c1ccc(NC(=O)C(CC(=O)Nc2ccc(OC)cc2)C(C)=O)cc1,,,,30 µg/mL,inhibition,H37Rv,0%
COC(=O)C(=O)c1c(C2CC2)[nH]c2[nH]n(-c3ccccc3)c(=O)c2c1=O,,BACTEC,,12.5 µg/mL,inhibition,H37Rv,4%
CC(C)(C)C1CCc2c(sc3nc(SCC(N)=O)nc(N)c23)C1,,MTT,,,MIC,H37Rv,36 µM
CO[C@H]1/C=C/O[C@@]2(C)Oc3c(C)c(O)c4c(O)c(c5c(c4c3C2=O)NC2(CCN(CC(C)C)CC2)N=5)=NC(=O)/C(C)=C\C=C\[C@H](C)[C@H](O)[C@@H](C)[C@@H](O)[C@@H](C)[C@H](OC(C)=O)[C@@H]1C,,,,,MBC,H37Rv,0.125 µg/mL
C=CCN1CCCC[C@H]1[C@@H](O)c1cc(C(F)(F)F)nc2c(C(F)(F)F)cccc12,,,,,MIC,,25 µM
CCN(CC)CCNC(=O)c1ccc([N+](=O)[O-])cc1,,,,,MIC,H37Rv,50 µg/mL
NC(=O)C1=C[C@H]2[C@H]3C=C[C@@]2(O)C(=O)O[C@@H]3O1,,,,,MIC,H37Rv,6.3 µg/mL
CCN(CC)CCCN=c1cc2n(-c3ccc(Cl)c(Cl)c3)c3ccccc3nc-2cc1Nc1ccc(Cl)c(Cl)c1,,,multidrug-resistant,,MIC,2218,0.25 µg/mL
COc1ccc(Br)cc1/C=C1\N=C(C2CCCCC2)OC1=O,,MTT,,,MIC,H37Rv,68.6 µM
N[C@@H]1CONC1=O,,,,,MIC,Streptomycin-resistant,<10 µg/mL
OC(c1cc(-c2ccccc2)nc2cc(Cl)ccc12)C1CCCCN1,,resazurin,,,MIC bound,H37Rv,<6.25 µg/mL
Cn1cnc2c(NC(=O)Nc3cccc(F)c3)nc(Cl)cc21,,visual reading,,,MIC99,H37Rv,6.5 µM
CCOC(=O)C(=O)Nc1ccc(C(=O)OCC)o1,,BACTEC,,12.5 µg/mL,inhibition,H37Rv,26%
CC(CCC(=O)N[C@@H](Cc1ccccc1)C(=O)OCc1cn(CC2OC(n3ccc(=O)[nH]c3=O)[C@@H]3OC(C)(C)O[C@H]23)nn1)[C@H]1CCC2C3C(C[C@H](O)[C@@]21C)[C@@]1(C)CC[C@@H](O)CC1C[C@H]3O,,resazurin,,,MIC,H37Rv,13.84 µM
CCN(CC)c1ccc2nc3c4ccccc4c(=N)cc-3oc2c1,,,,,MIC,TAC-R,1.6 µg/mL
CC1(C)S[C@@H]2[C@H](NC(=O)C(C(=O)O)c3ccccc3)C(=O)N2[C@H]1C(=O)O,,colony count,21 d,20 µg/mL,inhibition,Gordon,94%

5 of the rows above, restated:

{"compound": "COc1ccc2c(c1)N(C[C@H](C)CN(C)C)c1ccccc1S2", "endpoint": "MIC", "value": "10 µg/mL"}
{"compound": "O[C@@H](c1cc(C(F)(F)F)nc2c(C(F)(F)F)cccc12)[C@@H]1CCCCN1Cc1ccccc1", "endpoint": "MIC", "value": "7 µM"}
{"compound": "CCN(CC)c1ccc2nc3c4ccccc4c(=N)cc-3oc2c1", "endpoint": "MIC", "strain": "TAC-R", "value": "1.6 µg/mL"}
{"compound": "COC(=O)c1ccc(/C=C2\\N=C(c3ccc(F)cc3)OC2=O)cc1", "method": "MTT", "endpoint": "MIC", "strain": "H37Rv", "value": "38.5 µM"}
{"compound": "Cn1cnc2c(NC(=O)c3cccc(C(F)(F)F)c3)nc(Cl)cc21", "method": "visual reading", "endpoint": "MIC99", "strain": "H37Rv", "value": "0.25 µM"}